Laboratory results from paper PMC12167710 (Nature Biotechnology, 2024).

B1: mRBD7 (antibody, V domains shown)
VH: QVQLKQSGAELVRPGASVKLSCKASGYTFTDYYINWVKQRPGQGLEWIARIYPGSGNTYYNEKFKGKATLTAEKSSSTAYMQLSSLTSEDSAVYFCARYPLYDYDEEDYFDYWGQGTTLTVSS
VL: DIQMTQTTSSLSASLGDRVTISCRASQDISNYLNWYQQKPDGTVKLLIYYTSRLHSGVPSRFSGSGSGTDYSLTISNLEQEDIATYFCQQGNTLPYTFGGGTKLEIK
B2: mRBD14 (antibody, V domains shown)
VH: EVKLVESGGGLVQPGGSLSLSCAASGFTFTDYYMSWVRQPPGKALEWLGFIRNKANGYTTEYSASVKGRFTISRDNSQSILYLQMNALRAEDSATYYCARYIRTGWYFDVWGTGTTVTVSS
VL: DIVMTQSQKFMSTSVRDRVSITCKASQNVRTAVAWYQQKPGQSPKALIYLASNRHTGVPDRFTGSGSGTDFTLTISNVQSEDLADYFCLQHWNYPWTFGGGTKLEIK

Target: T1, receptor-binding domain (RBD) of the wild-type SARS-CoV-2 spike protein (SARS-CoV-2, UniProt P0DTC2 333-527)
T1 construct: also called SARS-CoV-2 RBD
Experiment: ELISA
Conditions: both partners purified

| Binder | EC50 |
| --- | --- |
| B1 | 0.62 nM |
| B2 | 0.24 nM |
